Results of unrelated studies side by side (data: NIAID ChemDB).

Common to all: tests on isolated targets; organism: Toxoplasma gondii

Neighbouring rows are from separate reports. Blank or dashed fields: not listed here. ICn is the concentration giving n% inhibition. Inhibition is in % at the dose shown (toxicity tests: loss of growth or viability).

{"compound": "Nc1nc(N)c2nc(Cc3cccc(C(F)(F)F)c3)c(Cc3cccc(C(F)(F)F)c3)nc2n1", "target": "DHFR", "endpoint": "IC50", "value": "39 µM"}
{"compound": "CC(C)Cc1nc2nc(N)nc(N)c2nc1CC(C)C", "target": "DHFR", "endpoint": "IC50", "value": "0.028 µM"}
{"compound": "Cc1cc(NS(=O)(=O)c2ccc(N)cc2)no1", "target": "DHPS", "endpoint": "Ki", "value": "21 µM"}
{"compound": "CC(=O)Nc1ccc(C(=O)O)cc1", "target": "DHPS", "endpoint": "IC50", "value": "54 µM"}
{"compound": "C/C(=C/c1coc2nc(N)nc(N)c12)c1ccc(Cl)cc1", "target": "Dihydrofolate reductase", "endpoint": "IC50", "value": "11 µM"}
{"compound": "Nc1nc(N)c2nc(CCc3ccccc3)c(CCc3ccccc3)nc2n1", "target": "DHFR", "endpoint": "IC50", "value": "4.8 µM"}
{"compound": "Nc1nc(N)c2cc(COC(=O)c3ccccc3-c3ccccc3)ccc2n1", "target": "Dihydrofolate reductase", "endpoint": "IC50", "value": "0.17 µM"}
{"compound": "Cc1noc(NS(=O)(=O)c2ccc(N)cc2)c1C", "target": "DHPS", "endpoint": "Ki", "value": "21 µM"}
{"compound": "Nc1nc(N)c2c(CNc3cc(Cl)c(-n4cccc4)c(Cl)c3)csc2n1", "target": "DHFR", "tested at": "10 µM", "endpoint": "inhibition", "value": "<30%"}
{"compound": "CC(=O)Nc1ccc(C(=O)O)cc1", "strain or isolate": "RH", "target": "DHPS", "tested at": "100 µM", "endpoint": "inhibition", "value": "67.3%"}
{"compound": "CC(Cc1coc2nc(N)nc(N)c12)c1ccc(Cl)cc1", "target": "Dihydrofolate reductase", "endpoint": "IC50", "value": "40 µM"}
{"compound": "Nc1nc(N)c2cc(F)ccc2n1", "target": "DHFR", "endpoint": "IC50", "value": "104 µM"}
{"compound": "Cc1[nH]c2ccccc2c(=O)c1-c1ccc(Oc2ccc(OC(F)(F)F)cc2)cc1", "strain or isolate": "2F", "target": "Cytochrome c", "method": "absorbance", "endpoint": "IC50", "value": "0.0306 µM"}
{"compound": "CCCCCCCCCCCC1(C)N=C(N)N=C(N)N1c1ccc(Cl)cc1", "target": "DHFR", "endpoint": "IC50", "value": "0.075 µM"}
{"compound": "CCc1nc2nc(N)nc(N)c2nc1-c1ccccc1OC", "target": "DHFR", "endpoint": "IC50", "value": "0.018 µM"}
{"compound": "COc1ccc(/C(C)=C\\c2coc3nc(N)nc(N)c23)c(OC)c1", "target": "Dihydrofolate reductase", "endpoint": "IC50", "value": "11 µM"}
{"compound": "Nc1nc(N)c2cc(COC(=O)c3c4ccccc4cc4ccccc34)ccc2n1", "target": "Dihydrofolate reductase", "endpoint": "IC50", "value": "0.67 µM"}
{"compound": "CCCCCc1nc2nc(N)nc(N)c2nc1CCCCC", "target": "DHFR", "endpoint": "IC50", "value": "0.17 µM"}
{"compound": "C/C(=C\\c1coc2nc(N)nc(N)c12)c1ccc(Cl)cc1Cl", "target": "Dihydrofolate reductase", "endpoint": "IC50", "value": "10 µM"}
{"compound": "Cc1cc(C)cc(C(=O)OCc2ccc3nc(N)nc(N)c3c2)c1", "target": "Dihydrofolate reductase", "endpoint": "IC50", "value": "0.13 µM"}
{"compound": "Nc1nc(N)c2nc(Cc3ccc(Cl)c(Cl)c3)c(Cc3ccc(Cl)c(Cl)c3)nc2n1", "target": "DHFR", "endpoint": "IC50", "value": ">28 µM"}
{"compound": "Nc1nc(N)c2cc(COC(=O)c3cc4ccccc4c4ccccc34)ccc2n1", "target": "Dihydrofolate reductase", "endpoint": "IC50", "value": "1.8 µM"}
{"compound": "CC1(C)N=C(N)N=C(N)N1c1ccc(CN2C(N)=NC(N)NC2(C)C)cc1", "target": "DHFR", "endpoint": "IC50", "value": "0.017 µM"}
{"compound": "CCCCCCCc1c(C)[nH]c2cc(OC)ccc2c1=O", "strain or isolate": "2F", "target": "Cytochrome c reductase", "method": "absorbance", "endpoint": "IC50", "value": "0.0082 µM"}

The last 2 rows once more:

compound	strain or isolate	target	method	tested at	endpoint	value
CC1(C)N=C(N)N=C(N)N1c1ccc(CN2C(N)=NC(N)NC2(C)C)cc1	-	DHFR	-	-	IC50	0.017 µM
CCCCCCCc1c(C)[nH]c2cc(OC)ccc2c1=O	2F	Cytochrome c reductase	absorbance	-	IC50	0.0082 µM